Data published in patent US6974685B2, “High production method of prenyl alcohol using saccharomyces cells” (Toyota Jidosha Kabushiki Kaisha 1, priority 2000, dated 2005).

Columns and labels:
Format in all cases: cell-based
[1] = test system: Saccharomyces cerevisiae strain ATCC 64031; test: Effect of tocopherol on prenyl alcohol secretory production, GC/MS (Example 5, Table 1)
[2] = test system: IFO 0717 Yarrowia lopolytica; test: Test-tube culture with ergosterol and squalene synthesis inhibitor SQAD, with or without glucose and soybean oil (Example 8)
[3] = test system: IFO 0974 Kuraishia capsulata; test: as above
[4] = test system: IFO 0215 Saccharomyces unisporus; test: as above
[5] = test system: IFO 3032 Baccilus amyloliquefaciens; test: Control culture of bacterial strain in KB medium (Example 11, Table 14); conditions: treated with phosphatase
[6] = test system: IFO 1892 Saccharomyces kluyeri; test: Test-tube culture with ergosterol and squalene synthesis inhibitor SQAD, with or without glucose and soybean oil (Example 8)
[7] = test system: IFO 0622 Candida glabrata; test: as above
[8] = test system: IFO 3762 Staphylococcus epidermidis; test: Control culture of bacterial strain in KB medium (Example 11, Table 14); conditions: treated with phosphatase
[9] = test system: IFO 0948 Komagataella pastoris; test: Test-tube culture with ergosterol and squalene synthesis inhibitor SQAD, with or without glucose and soybean oil (Example 8)
[10] = YM + 4 mg/L ergosterol, SQAD 0 mg/L, 3 days
[11] = YM + 4 mg/L ergosterol, SQAD 0 mg/L, 7 days
[12] = YM + 4 mg/L ergosterol, SQAD 1 mg/L, 3 days
[13] = YM + 4 mg/L ergosterol, SQAD 1 mg/L, 7 days
[14] = YM + 4 mg/L ergosterol, SQAD 20 mg/L, 3 days
[15] = YM + 4 mg/L ergosterol, SQAD 20 mg/L, 7 days
[16] = YM + 5% glucose + 1% soybean oil + 4 mg/L ergosterol, SQAD 0 mg/L, 3 days
[17] = YM + 5% glucose + 1% soybean oil + 4 mg/L ergosterol, SQAD 0 mg/L, 7 days
[18] = YM + 5% glucose + 1% soybean oil + 4 mg/L ergosterol, SQAD 1 mg/L, 3 days
[19] = YM + 5% glucose + 1% soybean oil + 4 mg/L ergosterol, SQAD 1 mg/L, 7 days
[20] = YM + 5% glucose + 1% soybean oil + 4 mg/L ergosterol, SQAD 20 mg/L, 3 days
[21] = YM + 5% glucose + 1% soybean oil + 4 mg/L ergosterol, SQAD 20 mg/L, 7 days

CC(C)=CCCC(C)=CCCC(C)=CC=O [FAL, farnesal]
Cell fraction ([1]; Tocopherol 0 μM): 217 μg/L of culture solution | Supernatant fraction ([1]; Tocopherol 0 μM): 84 μg/L of culture solution | Cell fraction ([1]; Tocopherol 20 μM): 179 μg/L of culture solution | Supernatant fraction ([1]; Tocopherol 20 μM): 84 μg/L of culture solution | Cell fraction ([1]; Tocopherol 200 μM): 127 μg/L of culture solution | Supernatant fraction ([1]; Tocopherol 200 μM): 120 μg/L of culture solution

C=CC(C)(O)CCC=C(C)CCC=C(C)C (stereo not shown) [NE, nerolidol]
Cell fraction [2, 10]: 0.0 μg/L of culture solution | Supernatant fraction [2, 10]: 0.0 μg/L of culture solution | Cell fraction [2, 11]: 0.0 μg/L of culture solution | Supernatant fraction [2, 11]: 0.0 μg/L of culture solution | Cell fraction [2, 12]: 0.0 μg/L of culture solution | Supernatant fraction [2, 12]: 0.0 μg/L of culture solution | Cell fraction [2, 13]: 0.0 μg/L of culture solution | Supernatant fraction [2, 13]: 0.0 μg/L of culture solution | Cell fraction [2, 14]: 0.0 μg/L of culture solution | Supernatant fraction [2, 14]: 0.0 μg/L of culture solution | Cell fraction [2, 15]: 0.0 μg/L of culture solution | Supernatant fraction [2, 15]: 0.0 μg/L of culture solution | Cell fraction [2, 16]: 0.0 μg/L of culture solution | Supernatant fraction [2, 16]: 0.0 μg/L of culture solution | Cell fraction [2, 17]: 0.0 μg/L of culture solution | Supernatant fraction [2, 17]: 0.0 μg/L of culture solution | Cell fraction [2, 18]: 0.0 μg/L of culture solution | Supernatant fraction [2, 18]: 2.4 μg/L of culture solution | Cell fraction [2, 19]: 0.0 μg/L of culture solution | Supernatant fraction [2, 19]: 19.0 μg/L of culture solution | Cell fraction [2, 20]: 0.0 μg/L of culture solution | Supernatant fraction [2, 20]: 19.0 μg/L of culture solution | Cell fraction [2, 21]: 0.0 μg/L of culture solution | Supernatant fraction [2, 21]: 156.7 μg/L of culture solution | Cell fraction [3, 10]: 0.0 μg/L of culture solution | Supernatant fraction [3, 10]: 0.0 μg/L of culture solution | Cell fraction [3, 11]: 0.0 μg/L of culture solution | Supernatant fraction [3, 11]: 0.0 μg/L of culture solution | Cell fraction [3, 12]: 0.0 μg/L of culture solution | Supernatant fraction [3, 12]: 0.0 μg/L of culture solution | Cell fraction [3, 13]: 0.0 μg/L of culture solution | Supernatant fraction [3, 13]: 0.0 μg/L of culture solution | Cell fraction [3, 14]: 0.0 μg/L of culture solution | Supernatant fraction [3, 14]: 0.0 μg/L of culture solution | Cell fraction [3, 15]: 0.0 μg/L of culture solution | Supernatant fraction [3, 15]: 0.0 μg/L of culture solution | Cell fraction [3, 16]: 0.0 μg/L of culture solution | Supernatant fraction [3, 16]: 0.0 μg/L of culture solution | Cell fraction [3, 17]: 0.0 μg/L of culture solution | Supernatant fraction [3, 17]: 0.0 μg/L of culture solution | Cell fraction [3, 18]: 0.0 μg/L of culture solution | Supernatant fraction [3, 18]: 0.0 μg/L of culture solution | Cell fraction [3, 19]: 0.0 μg/L of culture solution | Supernatant fraction [3, 19]: 0.0 μg/L of culture solution | Cell fraction [3, 20]: 0.0 μg/L of culture solution | Supernatant fraction [3, 20]: 0.0 μg/L of culture solution | Cell fraction [3, 21]: 0.0 μg/L of culture solution | Supernatant fraction [3, 21]: 35.9 μg/L of culture solution | Cell fraction [4, 10]: 0.0 μg/L of culture solution | Supernatant fraction [4, 10]: 0.0 μg/L of culture solution | Cell fraction [4, 11]: 0.0 μg/L of culture solution | Supernatant fraction [4, 11]: 0.0 μg/L of culture solution | Cell fraction [4, 12]: 0.0 μg/L of culture solution | Supernatant fraction [4, 12]: 0.0 μg/L of culture solution | Cell fraction [4, 13]: 0.0 μg/L of culture solution | Supernatant fraction [4, 13]: 0.0 μg/L of culture solution | Cell fraction [4, 14]: 0.0 μg/L of culture solution | Supernatant fraction [4, 14]: 0.0 μg/L of culture solution | Cell fraction [4, 15]: 0.0 μg/L of culture solution | Supernatant fraction [4, 15]: 0.0 μg/L of culture solution | Cell fraction [4, 16]: 0.0 μg/L of culture solution | Supernatant fraction [4, 16]: 16.3 μg/L of culture solution | Cell fraction [4, 17]: 0.0 μg/L of culture solution | Supernatant fraction [4, 17]: 19.6 μg/L of culture solution | Cell fraction [4, 18]: 0.0 μg/L of culture solution | Supernatant fraction [4, 18]: 12.2 μg/L of culture solution | Cell fraction [4, 19]: 0.0 μg/L of culture solution | Supernatant fraction [4, 19]: 27.3 μg/L of culture solution | Cell fraction [4, 20]: 0.0 μg/L of culture solution | Supernatant fraction [4, 20]: 67.4 μg/L of culture solution | Cell fraction [4, 21]: 8.6 μg/L of culture solution | Supernatant fraction [4, 21]: 466.6 μg/L of culture solution | Cell fraction [5]: 0.0 μg/L of culture solution | Supernatant fraction [5]: 0.0 μg/L of culture solution | Cell fraction [6, 10]: 0.0 μg/L of culture solution | Supernatant fraction [6, 10]: 0.0 μg/L of culture solution | Cell fraction [6, 11]: 0.0 μg/L of culture solution | Supernatant fraction [6, 11]: 0.0 μg/L of culture solution | Cell fraction [6, 12]: 0.0 μg/L of culture solution | Supernatant fraction [6, 12]: 0.0 μg/L of culture solution | Cell fraction [6, 13]: 0.0 μg/L of culture solution | Supernatant fraction [6, 13]: 0.0 μg/L of culture solution | Cell fraction [6, 14]: 0.0 μg/L of culture solution | Supernatant fraction [6, 14]: 0.0 μg/L of culture solution | Cell fraction [6, 15]: 0.0 μg/L of culture solution | Supernatant fraction [6, 15]: 0.0 μg/L of culture solution | Cell fraction [6, 16]: 0.0 μg/L of culture solution | Supernatant fraction [6, 16]: 0.0 μg/L of culture solution | Cell fraction [6, 17]: 0.0 μg/L of culture solution | Supernatant fraction [6, 17]: 0.0 μg/L of culture solution | Cell fraction [6, 18]: 0.0 μg/L of culture solution | Supernatant fraction [6, 18]: 0.0 μg/L of culture solution | Cell fraction [6, 19]: 0.0 μg/L of culture solution | Supernatant fraction [6, 19]: 23.5 μg/L of culture solution | Cell fraction [6, 20]: 0.0 μg/L of culture solution | Supernatant fraction [6, 20]: 0.0 μg/L of culture solution | Cell fraction [6, 21]: 0.0 μg/L of culture solution | Supernatant fraction [6, 21]: 44.1 μg/L of culture solution | Cell fraction [7, 10]: 0.0 μg/L of culture solution | Supernatant fraction [7, 10]: 0.0 μg/L of culture solution | Cell fraction [7, 11]: 0.0 μg/L of culture solution | Supernatant fraction [7, 11]: 0.0 μg/L of culture solution | Cell fraction [7, 12]: 0.0 μg/L of culture solution | Supernatant fraction [7, 12]: 0.0 μg/L of culture solution | Cell fraction [7, 13]: 0.0 μg/L of culture solution | Supernatant fraction [7, 13]: 0.0 μg/L of culture solution | Cell fraction [7, 14]: 0.0 μg/L of culture solution | Supernatant fraction [7, 14]: 0.0 μg/L of culture solution | Cell fraction [7, 15]: 0.0 μg/L of culture solution | Supernatant fraction [7, 15]: 0.0 μg/L of culture solution | Cell fraction [7, 16]: 0.0 μg/L of culture solution | Supernatant fraction [7, 16]: 0.0 μg/L of culture solution | Cell fraction [7, 17]: 0.0 μg/L of culture solution | Supernatant fraction [7, 17]: 11.6 μg/L of culture solution | Cell fraction [7, 18]: 0.0 μg/L of culture solution | Supernatant fraction [7, 18]: 9.4 μg/L of culture solution | Cell fraction [7, 19]: 0.0 μg/L of culture solution | Supernatant fraction [7, 19]: 17.2 μg/L of culture solution | Cell fraction [7, 20]: 0.0 μg/L of culture solution | Supernatant fraction [7, 20]: 422.2 μg/L of culture solution | Cell fraction [7, 21]: 138.0 μg/L of culture solution | Supernatant fraction [7, 21]: 1256.9 μg/L of culture solution | Cell fraction [8]: 0.0 μg/L of culture solution | Supernatant fraction [8]: 0.0 μg/L of culture solution | Cell fraction [9, 10]: 0.0 μg/L of culture solution | Supernatant fraction [9, 10]: 0.0 μg/L of culture solution | Cell fraction [9, 11]: 0.0 μg/L of culture solution | Supernatant fraction [9, 11]: 0.0 μg/L of culture solution | Cell fraction [9, 12]: 0.0 μg/L of culture solution | Supernatant fraction [9, 12]: 0.0 μg/L of culture solution | Cell fraction [9, 13]: 0.0 μg/L of culture solution | Supernatant fraction [9, 13]: 0.0 μg/L of culture solution | Cell fraction [9, 14]: 0.0 μg/L of culture solution | Supernatant fraction [9, 14]: 0.0 μg/L of culture solution | Cell fraction [9, 15]: 0.0 μg/L of culture solution | Supernatant fraction [9, 15]: 0.0 μg/L of culture solution | Cell fraction [9, 16]: 0.0 μg/L of culture solution | Supernatant fraction [9, 16]: 0.0 μg/L of culture solution | Cell fraction [9, 17]: 0.0 μg/L of culture solution | Supernatant fraction [9, 17]: 0.0 μg/L of culture solution | Cell fraction [9, 18]: 0.0 μg/L of culture solution | Supernatant fraction [9, 18]: 0.0 μg/L of culture solution | Cell fraction [9, 19]: 0.0 μg/L of culture solution | Supernatant fraction [9, 19]: 0.0 μg/L of culture solution | Cell fraction [9, 20]: 0.0 μg/L of culture solution | Supernatant fraction [9, 20]: 17.2 μg/L of culture solution | Cell fraction [9, 21]: 0.0 μg/L of culture solution | Supernatant fraction [9, 21]: 34.2 μg/L of culture solution

dehydrofarnesol [DHFOH]
Cell fraction ([1]; Tocopherol 0 μM): 4630 μg/L of culture solution | Supernatant fraction ([1]; Tocopherol 0 μM): 1238 μg/L of culture solution | Cell fraction ([1]; Tocopherol 20 μM): 3622 μg/L of culture solution | Supernatant fraction ([1]; Tocopherol 20 μM): 1573 μg/L of culture solution | Cell fraction ([1]; Tocopherol 200 μM): 2206 μg/L of culture solution | Supernatant fraction ([1]; Tocopherol 200 μM): 3527 μg/L of culture solution
